Pooled drug test results. Numbers come from NIAID ChemDB, via PubChem.

Shared fields: growth or infection tests

Lines come from different laboratories, so protocols vary. Percent inhibition refers to the dose given; in toxicity tests it is the harm to the cells. MIC50, MIC90 and the like: level of inhibition, or share of isolates inhibited. Blank or dashed fields: not listed here. ECn is the concentration giving n% inhibition of infection, replication or growth.

smiles	species	cell line	measure	read by	tested at	strain	result
O=S(=O)(O)c1cc(O)c2c(O)c(N=Nc3ccccc3)c(S(=O)(=O)O)cc2c1	Herpes simplex virus	Human amnion AV3 cells	inhibition	cytopathic effect	5 µg/mL		0%
O=c1[nH]c(=O)n([C@H]2C[C@H](O)[C@@H](CO)O2)cc1I	Varicella zoster virus	HELF	inhibition	plaque count	1 µg/mL	Asahikawa	67%
CCOC(=O)c1c(C)nc(NCCCCNc2ccnc3cc(Cl)ccc23)nc1-c1ccccc1	Cryptococcus gattii		MIC99			L 27/01	32 µg/mL
C=CCc1ccc(O)c(OC)c1	Candida parapsilosis		MIC90	turbidity		2383	500 µg/mL
O=C(Nc1ccc2c(O)c(N=Nc3ccc(N=Nc4ccc(S(=O)(=O)O)cc4)cc3)c(S(=O)(=O)O)cc2c1)c1ccccc1	Rhinovirus	Human amnion AV3 cells	inhibition	cytopathic effect	50 µg/mL		45%
CCC(CC)[C@H](NC(C)=O)[C@@H]1[C@H](O)[C@@H](C(=O)O)C[C@H]1N=C(N)N	Influenza A virus	MDCK	EC50	visual reading		Influenza A/Washington/897/80 (H3N2)	<0.01 µM
O=S(=O)([O-])c1ccc(O)cc1	Herpes simplex virus	Human amnion AV3 cells	inhibition	cytopathic effect	10 µg/mL		10%
CCOC(=O)c1c(C)nc(NCCCCNc2ccnc3cc(Cl)ccc23)nc1-c1ccc(F)cc1	Cryptococcus neoformans		MIC99			96806	45.3 µg/mL
O=C1C(c2[nH]c3ccc(S(=O)(=O)O)cc3c2O)=Nc2ccc(S(=O)(=O)O)cc21	Herpes simplex virus	Human amnion AV3 cells	inhibition	cytopathic effect	5 µg/mL		0%
Oc1ccccc1N=Cc1ccccc1	Cryptococcus gattii		MIC99			1913 ER	8 µg/mL
O=c1[nH]c(=O)n([C@H]2C[C@H](O)[C@@H](CO)O2)cc1/C=C/Br	Varicella zoster virus	HELF	inhibition	plaque count	0.001 µg/mL	OKA	8%
CCOC(=O)c1c(C)nc(OCCCNc2ccnc3cc(Cl)ccc23)nc1-c1ccccc1	Cryptococcus neoformans		MIC99			ATCC 28957	1.4 µg/mL
Cc1cc(CCCOc2c(C)cc(-c3noc(C(F)(F)F)n3)cc2C)on1	Rhinovirus	OHIO HELA-I	EC50	cytopathic effect / visual reading		Isolate 23	<0.01 µg/mL
C=Cc1cn([C@@H]2O[C@H](CO)[C@@H](O)[C@@H]2O)c(=O)[nH]c1=O	Varicella zoster virus	HELF	inhibition	plaque count	0.01 µg/mL	KANNO	0%
Nc1ccc(S(=O)(=O)[O-])c2c(S(=O)(=O)[O-])ccc(O)c12	Adenovirus	Human amnion AV3 cells	inhibition	cytopathic effect	10 µg/mL	TYPE 3	0%
Cc1cn([C@@H]2O[C@H](CO)[C@@H](O)[C@@H]2F)c(=O)nc1N	Varicella zoster virus	HELF	inhibition	plaque count	0.01 µg/mL	OKA	50%
CCOC(=O)c1ccc(OCCC2CCN(c3ccc(C)nn3)CC2)cc1	Rhinovirus	KB	EC50	neutral red		FO 1-3772 (ICAM-1 receptor group 52)	0.054 µM
Nc1nc2c(ncn2COCCO)c(=O)[nH]1	Varicella zoster virus	HELF	inhibition	plaque count	10 µg/mL	HIRAI	100%
Nc1cc(S(=O)(=O)[O-])cc2cc(S(=O)(=O)[O-])ccc12	Adenovirus	Human amnion AV3 cells	inhibition	cytopathic effect	50 µg/mL	TYPE 3	0%

The last 3 rows once more:

smiles | species | cell line | measure | read by | tested at | strain | result
CCOC(=O)c1ccc(OCCC2CCN(c3ccc(C)nn3)CC2)cc1 | Rhinovirus | KB | EC50 | neutral red |  | FO 1-3772 (ICAM-1 receptor group 52) | 0.054 µM
Nc1nc2c(ncn2COCCO)c(=O)[nH]1 | Varicella zoster virus | HELF | inhibition | plaque count | 10 µg/mL | HIRAI | 100%
Nc1cc(S(=O)(=O)[O-])cc2cc(S(=O)(=O)[O-])ccc12 | Adenovirus | Human amnion AV3 cells | inhibition | cytopathic effect | 50 µg/mL | TYPE 3 | 0%